Key:
C. neoformans ATCC 90112 = assay: Antifungal susceptibility assay, MIC; format: cell-based, Cryptococcus neoformans
C. albicans ATCC 10231 = assay: Antifungal susceptibility assay, MIC; format: cell-based, Candida albicans
C. albicans ATCC 90028 = assay: Antifungal MIC, broad spectrum; format: cell-based, Candida albicans; settings: Table 1b
C. krusei 04-202328 = assay: Antifungal MIC, broad spectrum; format: cell-based, Candida krusei; settings: Table 1b
C. krusei ATCC 6258 = assay: Antifungal MIC, broad spectrum; format: cell-based, Candida krusei; settings: Table 1b
[1] = tested on: C. parapsilosis 04-202398; assay: Antifungal MIC, broad spectrum; format: cell-based, Candida parapsilosis; settings: Table 1b
[2] = tested on: C. parapsilosis ATCC 22019; assay: Antifungal MIC, broad spectrum; format: cell-based, Candida parapsilosis; settings: Table 1b
C. glabrata 04-202345 = assay: Antifungal MIC, broad spectrum; format: cell-based, Candida glabrata; settings: Table 1b
C. tropicalis 04-202361 = assay: Antifungal MIC, broad spectrum; format: cell-based, Candida tropicalis; settings: Table 1b
C. neoformans 05-202523 = assay: Antifungal MIC, broad spectrum; format: cell-based, Cryptococcus neoformans; settings: Table 1b
C. gattii 05-200122 = assay: Antifungal MIC, broad spectrum; format: cell-based, Cryptococcus gattii; settings: Table 1b
A. fumigatus 05-203114 = assay: Antifungal MIC, broad spectrum; format: cell-based, Aspergillus fumigatus; settings: Table 1b
A. fumigatus ATCC 204305 = assay: Antifungal MIC, broad spectrum; format: cell-based, Aspergillus fumigatus; settings: Table 1b
A. flavus 05-203758 = assay: Antifungal MIC, broad spectrum; format: cell-based, Aspergillus flavus; settings: Table 1b
A. flavus ATCC 204304 = assay: Antifungal MIC, broad spectrum; format: cell-based, Aspergillus flavus; settings: Table 1b
A. terreus 05-202844 = assay: Antifungal MIC, broad spectrum; format: cell-based, Aspergillus terreus; settings: Table 1b
S. prolificans 05-203060 = assay: Antifungal MIC, broad spectrum; format: cell-based, Scedosporium prolificans; settings: Table 1b
S. apiospermum 05-203100 = assay: Antifungal MIC, broad spectrum; format: cell-based, Scedosporium apiospermum; settings: Table 1b
[3] = tested on: Cunninghamella berth 99-12187; assay: Antifungal MIC, broad spectrum; format: cell-based, Cunninghamella bertholletiae; settings: Table 1b
[4] = tested on: Absidia corymbifera 04-200170; assay: Antifungal MIC, broad spectrum; format: cell-based; settings: Table 1b
[5] = tested on: Exophiala jeanselmei 03-200268; assay: Antifungal MIC, broad spectrum; format: cell-based; settings: Table 1b
[6] = tested on: Exophiala spinifera 03-200803; assay: Antifungal MIC, broad spectrum; format: cell-based; settings: Table 1b
[7] = tested on: Fusarium solani 04-203102; assay: Antifungal MIC, broad spectrum; format: cell-based; settings: Table 1b
[8] = tested on: Paecilomyces lilacinus 05-200601; assay: Antifungal MIC, broad spectrum; format: cell-based; settings: Table 1b
[9] = tested on: Rhizopus oryzae 05-203111; assay: Antifungal MIC, broad spectrum; format: cell-based; settings: Table 1b

| Compound | MIC C. neoformans ATCC 90112 (C. neoformans ATCC 90112; Table 1b) [µM] | MIC C. albicans ATCC 10231 (C. albicans ATCC 10231; Table 1b) [µM] | MIC C. albicans ATCC 90028 (C. albicans ATCC 90028) [µM] | MIC C. krusei 04-202328 (C. krusei 04-202328) [µM] | MIC C. krusei ATCC 6258 (C. krusei ATCC 6258) [µM] | MIC C. parapsilosis 04-202398 [1] [µM] | MIC C. parapsilosis ATCC 22019 [2] [µM] | MIC C. glabrata 04-202345 (C. glabrata 04-202345) [µM] | MIC C. tropicalis 04-202361 (C. tropicalis 04-202361) [µM] | MIC C. neoformans 05-202523 (C. neoformans 05-202523) [µM] | MIC C. gattii 05-200122 (C. gattii 05-200122) [µM] | MIC A. fumigatus 05-203114 (A. fumigatus 05-203114) [µM] | MIC A. fumigatus ATCC 204305 (A. fumigatus ATCC 204305) [µM] | MIC A. flavus 05-203758 (A. flavus 05-203758) [µM] | MIC A. flavus ATCC 204304 (A. flavus ATCC 204304) [µM] | MIC A. terreus 05-202844 (A. terreus 05-202844) [µM] | MIC S. prolificans 05-203060 (S. prolificans 05-203060) [µM] | MIC S. apiospermum 05-203100 (S. apiospermum 05-203100) [µM] | MIC Cunninghamella berth 99-12187 [3] [µM] | MIC Absidia corymbifera 04-200170 [4] [µM] | also measured |
| --- | --- | --- | --- | --- | --- | --- | --- | --- | --- | --- | --- | --- | --- | --- | --- | --- | --- | --- | --- | --- | --- |
| CCCCC(CCCC)c1cc[n+](CCCCCCCCCCCC[n+]2ccc(C(CCCC)CCCC)c(C)c2)cc1C | 2.75 | 2.75 | 2.75 | 5.5 | 5.5 | 22 | 2.75 | 2.75 | 2.75 | 5.5 | 2.75 | 22 | 22 | 87.5 | 22 | 5.5 | 5.5 | 2.75 | 22 | 44 | MIC Exophiala jeanselmei 03-200268 [5]: 5.5 µM; MIC Exophiala spinifera 03-200803 [6]: 2.75 µM; MIC Fusarium solani 04-203102 [7]: 44 µM; MIC Paecilomyces lilacinus 05-200601 [8]: 87.5 µM; MIC Rhizopus oryzae 05-203111 [9]: 5.5 µM |
| CCCCCCc1cc[n+](CCCCCCCCCCCC[n+]2ccc(CCCCCC)cc2)cc1 | 1.4 | 1.4 | 1.4 | 5.5 | 5.5 | 44 | 1.4 | 1.4 | 1.4 | 11 | 1.4 | 22 | 22 | 44 | 22 | 1.4 | 44 | 87.5 | 22 | 87.5 | MIC Exophiala jeanselmei 03-200268 [5]: 1.4 µM; MIC Exophiala spinifera 03-200803 [6]: 2.75 µM; MIC Fusarium solani 04-203102 [7]: 22 µM; MIC Paecilomyces lilacinus 05-200601 [8]: 87.5 µM; MIC Rhizopus oryzae 05-203111 [9]: 1.4 µM |
| CCCCCc1cc[n+](CCCCCCCC[n+]2ccc(CCCCC)cc2)cc1 | – | – | – | – | – | – | – | – | – | – | – | – | – | – | – | – | – | – | – | – | MIC C. neoformans ATCC 90112 (C. neoformans ATCC 90112; Table 1): 44 µM; MIC C. albicans ATCC 10231 (C. albicans ATCC 10231; Table 1): 2.7 µM |
| 1,12-bis[3-Methyl,4-pentyl(2-butyl)pyridinium]dodecane | – | – | – | – | – | – | – | – | – | – | – | – | – | – | – | – | – | – | – | – | MIC C. neoformans ATCC 90112 (C. neoformans ATCC 90112; Table 1c): 2.75 µM; MIC C. albicans ATCC 10231 (C. albicans ATCC 10231; Table 1c): 2.75 µM |
| CCCCCc1cc[n+](CCCCCCCCCCCCCCCC[n+]2ccc(CCCCC)cc2)cc1 | – | – | – | – | – | – | – | – | – | – | – | – | – | – | – | – | – | – | – | – | MIC C. neoformans ATCC 90112 (C. neoformans ATCC 90112; Table 1): 0.7 µM; MIC C. albicans ATCC 10231 (C. albicans ATCC 10231; Table 1): 0.7 µM |
| 1,12-bis(3,4-Dipentylpyridinium)dodecane | – | – | – | – | – | – | – | – | – | – | – | – | – | – | – | – | – | – | – | – | MIC C. neoformans ATCC 90112 (C. neoformans ATCC 90112; Table 1c): 2.75 µM; MIC C. albicans ATCC 10231 (C. albicans ATCC 10231; Table 1c): 2.75 µM |
| c1ccc(CCCc2cc[n+](CCCCCCCCCCCC[n+]3ccc(CCCc4ccccc4)cc3)cc2)cc1 | 2.75 | 2.75 | 2.75 | 22 | 22 | 87.5 | 1.4 | 1.4 | 1.4 | 44 | 2.75 | 22 | 44 | >87.5 | 87.5 | 2.75 | >87.5 | >87.5 | 44 | >87.5 | MIC Exophiala spinifera 03-200803 [6]: 2.75 µM; MIC Fusarium solani 04-203102 [7]: 44 µM; MIC Paecilomyces lilacinus 05-200601 [8]: >87.5 µM; MIC Rhizopus oryzae 05-203111 [9]: 1.4 µM |

From patent US20100016367A1, “BIS-PYRINIDIUM COMPOUNDS” (priority 2006, published 2010)
